The test system of data set [1] is C/C=C/C(=O)SCCNC(=O)CCNC(=O)[C@H](O)C(C)(C)COP(=O)(O)OP(=O)(O)OC[C@H]1O[C@@H](n2cnc3c(N)ncnc32)[C@H](O)[C@@H]1OP(=O)(O)O. In words: purified protein. The note with it: NADH as co-substrate, 20 mM Tris-HCl pH 7.5, 1 mM NaCl, 25°C.
In data set [2] the test system is NC(=O)C1=CN([C@@H]2O[C@H](COP(=O)(O)OP(=O)(O)OC[C@H]3O[C@@H](n4cnc5c(N)ncnc54)[C@H](O)[C@@H]3O)[C@@H](O)[C@H]2O)C=CC1. In words: purified protein. The conditions noted are these: crotonyl-CoA as substrate, 20 mM Tris-HCl pH 7.5, 1 mM NaCl, 25°C, varied: cofactor.

The values below come from PMC3198815 (PLoS ONE, 2011).

For “xoFabV (Xanthomonas oryzae pv. oryzae MAFF 311018)”, in data set [1], the Km (as a rule, the concentration of substrate that gives half-maximal velocity) was found to be 293 ± 16.5 µM; the kcat (in general, the number of substrate molecules converted per active site and unit of time at saturation) amounted to 1335 ± 145 min⁻¹; the catalytic efficiency (kcat/Km) (usually the second-order rate constant that governs catalysis at low substrate concentration) stood at 75000 M⁻¹ s⁻¹. The Michaelis-Menten constant (Km) in data set [2] stood at 18.7 ± 2.0 µM.
